Pooled drug test results. Numbers come from NIAID ChemDB, via PubChem.

All rows: whole-cell or culture tests; organism: Hepatitis B virus

An empty or dashed field is not shown. Conditions beyond the fields shown may differ between rows. ECn: concentration that inhibits the pathogen or its effect by n%.

SMILES,cells,read-out,strain,conditions,method,value
Nc1ccn([C@@H]2CS[C@H](CO)O2)c(=O)n1,HepAD38,EC50,,,PCR,0.02 µM
CCc1cn([C@@H]2O[C@H](CO)[C@@H](O)[C@@H]2F)c(=O)[nH]c1=O,HepG2.2.15,EC90,,,,87 µM
Nc1nc2c(ncn2[C@@H]2C[C@H](CO)[C@@H](O)C2)c(=O)[nH]1,HepG2 2.2.15,EC50,,,,0.05 µM
COc1ccccc1/C(Br)=C(\NC(=O)c1ccc([N+](=O)[O-])cc1)C(=O)N1CCCCC1,,EC50,,,,2.4 µM
Cc1cn([C@H]2O[C@@H](CO)C[C@H]2F)c(=O)nc1N,2.2.15,EC50,,,,>100 µM
Nc1cc(SCCOCP(=O)(O)O)nc(N)n1,HepAD38,EC50,,,PCR,1.8 µM
Nc1nccc2c1ncn2CCOCP(=O)(O)O,HB611,EC50,,,,<17.4 µM
Nc1ccn([C@@H]2CS[C@H](CO)O2)c(=O)n1,HepG2 2.2.15,EC50,,,ELISA / antigen,192.1 µM
CC(OCP(=O)(O)O)[C@@H](O)n1cnc(=N)c2[nH]cnc21,HB611,EC50,,,,32 µM
Nc1nc2c(ncn2CC2(OCP(=O)(O)O)CC2)c(=O)[nH]1,HepG2 2.2.15,EC50,,,,0.5 µM
Nc1nc(=O)n([C@@H]2CC[C@H](CO)O2)cc1F,HepAD38,EC90,RTM204,,,0.31 µM
COc1cc(C2Oc3cc(O)cc(O)c3C(=O)C2OC2O[C@H](CO)[C@@H](O)[C@H](O)[C@H]2O)ccc1O,HepG2.2.15,EC50,,,PCR,16.42 µM
CCCCC1=NC(N)=C2NC=NC2(O)N1OCP(=O)(O)O,HB611,EC50,,,,45 µM
Nc1nc2c(ncn2CCC(CO)CO)c(=O)[nH]1,HepG2 2.2.15,EC50,,,,100 µM
Nc1ccn([C@@H]2CC[C@H](CO)O2)c(=O)n1,2.2.15,EC50,,,,0.1 µM
Nc1nc(Cl)nc2c1ncn2[C@@H]1C[C@@H](O)[C@H](CO)O1,2.2.15,EC50,,,,>10 µM
C[C@@H](COc1cc(N)nc(N)n1)OCP(=O)(O)O,HepAD38,EC50,,,PCR,61 µM
CC1=C(O)C(=O)C=C2C1=CC=C1[C@@]2(C)CC[C@@]2(C)[C@@H]3C[C@](C)(C(=O)NC(C)C)CC[C@]3(C)CC[C@]12C,HepG2 2.2.15,EC50,,,ELISA / antigen,15.9 µM
C[C@H]1[C@H](C)C[C@@H](C(=O)O[C@@H]2O[C@H](CO[C@@H]3O[C@H](CO)[C@@H](O[C@@H]4O[C@H](C)[C@H](O)[C@@H](O)[C@H]4O)[C@H](O)[C@H]3O)[C@@H](O)[C@H](O)[C@H]2O)C2CC[C@]3(C)C(=CC[C@@H]4[C@@]5(C)C[C@@H](O)[C@H](O)[C@@](C)(CO)[C@@H]5CC[C@]43C)[C@H]21,HepG2.2.15,EC50,,7 d,antigen,84.2 µM
COc1cc2ccc(=O)oc2cc1O,HepG2.2.15,EC50,,,ELISA / antigen,885 µM
O=c1[nH]cnc2c1ncn2[C@@H]1O[C@@H](CO)C[C@@H]1F,2.2.15,EC50,,,,>10 µM
Nc1nc(N)c2ncn([C@H]3CC[C@@H](CO)O3)c2n1,HepG2.2.15,EC90,,,,42 µM
Nc1ccn([C@@H]2CS[C@H](CO)O2)c(=O)n1,,EC50,M550I,,,>50 µM
C[C@H](Cn1cnc2c(N)ncnc21)OCP(=O)(O)O,,EC50,Genotype A,,antigen / luminescence,0.034 µM
CCCCNc1nc2cc(Cl)c(Cl)cc2n1[C@H]1C[C@@H](CO)[C@H](O)[C@@H]1O,,EC50,,,,1.4 µM
CC1=C(O)C(=O)C=C2C1=CC=C1[C@@]2(C)CC[C@@]2(C)[C@@H]3C[C@](C)(C(=O)N4CCCC4)CC[C@]3(C)CC[C@]12C,HepG2 2.2.15,EC50,,,ELISA / antigen,21.7 µM
[N-]=[N+]=N[C@@H]1C[C@@H](n2cc(F)c(N)nc2=O)O[C@H]1CO,HepG2.2.15,EC50,,,,0.11 µM
Nc1ccn([C@@H]2CC[C@H](CO)O2)c(=O)n1,,EC50,,,,0.01 µM
Nc1nc(=O)n([C@@H]2C[C@@H](O)[C@H](CO)O2)cc1F,2.2.15,EC50,,,,5 µM
CNC(=O)[C@]1(C)CC[C@]2(C)CC[C@]3(C)C4=CC=C5C(=CC(=O)C(O)=C5C)[C@]4(C)CC[C@@]3(C)[C@@H]2C1,HepG2 2.2.15,EC50,,,ELISA / antigen,20.3 µM
Nc1ccn([C@@H]2C=C(F)[C@H](CO)O2)c(=O)n1,HepAD38,EC50,RTM204,,,<0.22 µM
Nc1nc(=O)n([C@@H]2C=C[C@H](CO)O2)cc1F,2.2.15,EC50,,,,<0.1 µM
Cc1cn([C@H]2O[C@@H](CO)[C@H](O)[C@H]2F)c(=O)[nH]c1=O,,EC50,M550V,,,1.5 µM
Cc1cn([C@@H]2C[C@@H](O)[C@H](CO)O2)c(=O)nc1N,HepG2.2.15,EC50,,,,0.24 µM
Nc1nc(=O)n([C@@H]2CC[C@H](CO)O2)cc1Cl,2.2.15,EC50,,,,10 µM
CC(OCn1cnc2cnc(N)nc21)OCP(=O)(O)O,HB611,EC50,,,,45 µM
Nc1ncnc2c1ncn2[C@H]1O[C@@H](CO)C[C@H]1F,2.2.15,EC50,,,,>10 µM
Cc1cn([C@@H]2C[C@@H](N=[N+]=[N-])[C@H](CO)O2)c(=O)[nH]c1=O,2.2.15,EC50,,,,>10 µM
Nc1nc2c(ncn2[C@H]2CC[C@@H](CO)O2)c(=O)[nH]1,HepG2.2.15,EC90,,,,9 µM
Nc1nc(=O)n([C@H]2O[C@@H](CO)C=C2F)cc1F,HEPAD79,EC90,RTM204,,,>10 µM
O[C@@H]1C(n2c(Cl)nc3cc(Cl)c(Cl)cc32)OC[C@@H]1O,,EC50,,,,80 µM
Cc1cn([C@@H]2C[C@@H](N=[N+]=[N-])[C@H](CO)O2)c(=O)[nH]c1=O,HepG2.2.15,EC50,,,,>10 µM
O=C1C[C@@H](c2ccc(O)cc2)Oc2cc(OC3O[C@H](CO)[C@@H](O)[C@H](O)[C@H]3O)cc(O)c21,HepG2.2.15,EC50,,,ELISA / antigen,371 µM
Cc1cn([C@@H]2C[C@@H](N)[C@H](CO)O2)c(=O)[nH]c1=O,2.2.15,EC50,,,,>10 µM
Cc1cc(OCCOCP(=O)(O)O)nc(N)n1,HEPAD79,EC50,,,PCR,>300 µM
Nc1nccc2c1ncn2C[C@H]1COP(=O)(O)CO1,HB611,EC50,,,,200 µM
O=c1[nH]c(=O)n([C@@H]2O[C@@H](CO)C[C@H]2F)cc1Cl,2.2.15,EC50,,,,>50 µM
COC(=O)[C@]1(C)CC[C@]2(C)CC[C@]3(C)C4=CC=C5C(=CC(=O)C(OC)=C5C)[C@]4(C)CC[C@@]3(C)[C@@H]2C1,HepG2 2.2.15,EC50,,,ELISA / antigen,19.9 µM
O=C(N/C(C(=O)N1CCCCC1)=C(/Cl)c1ccccc1)c1ccccc1,,EC50,,,,21.2 µM
Nc1nc(=O)n([C@H]2CS[C@@H](CO)O2)cc1F,HepAD38,EC50,RTM204,,,<6.94 µM
Nc1nc2c(ncn2COCCO)c(=O)[nH]1,HepG2 2.2.15,EC50,,,,>100 µM
Nc1ncnc2c1ncn2[C@@H]1CC[C@H](CO)O1,HepG2.2.15,EC50,,,,5 µM
CNC(=O)C1(NC(=O)C(=O)c2c(C)c(C(=O)Nc3ccc(F)c(F)c3)n3c2CCC3)CC(F)(F)C1,,EC50,Genotype A,,antigen / luminescence,0.009 µM
Nc1nc(N)c(C=O)c(OCCOCP(=O)(O)O)n1,HEPAD79,EC50,,,PCR,9 µM
Cc1cn([C@H]2CC[C@@H](CO)O2)c(=O)[nH]c1=O,HepG2.2.15,EC90,,,,134 µM
CC(C)=CCC[C@](C)(OC1OC(COC2OCC(O)C(O)C2O)C(O)C(O)C1O)[C@H]1CC[C@]2(C)[C@@H]1[C@H](O)C[C@@H]1[C@@]3(C)CC[C@H](O)C(C)(C)[C@@H]3[C@@H](OC3OC(CO)C(O)C(O)C3OC3OC(CO)C(O)C(O)C3O)C[C@]12C,HepG2.2.15,EC50,,2 d,PCR,4.078 µM
Cc1cn([C@H]2O[C@@H](CO)C[C@H]2F)c(=O)[nH]c1=O,2.2.15,EC50,,,,>10 µM
Nc1nc(=O)n([C@@H]2CC[C@H](CO)O2)cc1F,2.2.15,EC50,,,,10 µM
Nc1ncnc2c1ncn2[C@@H]1C[C@@H](F)[C@H](CO)O1,2.2.15,EC50,,,,>10 µM
Nc1ccn([C@@H]2CS[C@H](CO)O2)c(=O)n1,HepG2,EC50,Mutation M550I,,,3.8 µM
Nc1nc2c(ncn2COC(CO)CO)c(=O)[nH]1,HepG2 2.2.15,EC50,,,,>100 µM
Nc1nc(=O)n([C@@H]2C[C@@H](F)[C@H](CO)O2)cc1F,2.2.15,EC50,,,,4 µM
Nc1nc(=O)n([C@H]2O[C@@H](CO)C[C@H]2F)cc1Cl,2.2.15,EC50,,,,>50 µM
Cc1cn([C@@H]2C=C[C@H](CO)O2)c(=O)[nH]c1=O,2.2.15,EC50,,,,>10 µM
Nc1nc(=O)n([C@@H]2CS[C@H](CO)O2)cc1F,HepAD38,EC90,RTM204,,,1.16 µM
Nc1ncnc2c1ncn2[C@@H]1O[C@@H](CO)CC1F,2.2.15,EC50,,,,>100 µM
Nc1ccn([C@@H]2CS[C@H](CO)O2)c(=O)n1,Huh7,EC50,Mutation M552I,,,>80 µM
N#CCc1c(N)nc(N)nc1OCCOCP(=O)(O)O,HEPAD79,EC50,,,PCR,>300 µM
Nc1ccn([C@H]2O[C@@H](CO)C[C@H]2F)c(=O)n1,2.2.15,EC50,,,,4 µM
O=c1[nH]cnc2c1ncn2[C@H]1CC[C@@H](CO)O1,HepG2 2.2.15,EC50,,,,>100 µM
CC1=C(O)C(=O)C=C2C1=CC=C1[C@@]2(C)CC[C@@]2(C)[C@@H]3C[C@](C)(C(=O)N(C)C)CC[C@]3(C)CC[C@]12C,HepG2 2.2.15,EC50,,,ELISA / antigen,13.1 µM
COC(C)c1ccc(O)c(O)c1,HepG2.2.15,EC50,,,PCR,199 µM
Cc1cn([C@@H]2C[C@@H](F)[C@H](CO)O2)c(=O)[nH]c1=O,2.2.15,EC50,,,,>10 µM

Repeating the first 6 entries:

{"SMILES": "Nc1ccn([C@@H]2CS[C@H](CO)O2)c(=O)n1", "cells": "HepAD38", "read-out": "EC50", "method": "PCR", "value": "0.02 µM"}
{"SMILES": "CCc1cn([C@@H]2O[C@H](CO)[C@@H](O)[C@@H]2F)c(=O)[nH]c1=O", "cells": "HepG2.2.15", "read-out": "EC90", "value": "87 µM"}
{"SMILES": "Nc1nc2c(ncn2[C@@H]2C[C@H](CO)[C@@H](O)C2)c(=O)[nH]1", "cells": "HepG2 2.2.15", "read-out": "EC50", "value": "0.05 µM"}
{"SMILES": "COc1ccccc1/C(Br)=C(\\NC(=O)c1ccc([N+](=O)[O-])cc1)C(=O)N1CCCCC1", "read-out": "EC50", "value": "2.4 µM"}
{"SMILES": "Cc1cn([C@H]2O[C@@H](CO)C[C@H]2F)c(=O)nc1N", "cells": "2.2.15", "read-out": "EC50", "value": ">100 µM"}
{"SMILES": "Nc1cc(SCCOCP(=O)(O)O)nc(N)n1", "cells": "HepAD38", "read-out": "EC50", "method": "PCR", "value": "1.8 µM"}